According to patent US20240218054A1 (MABLOC, published 2024):

Biological target: T1, recombinant YFV E protein (soluble E, sE; YFV Asibi strain) (Yellow fever virus, Asibi strain)
T1 construct: also called YFV E antigen; YFV E monomer
Test: BLI monovalent (IgG on tip)

B1: ADI-42126 (antibody, V domains shown)
VH: QVQLVQSGAEVKKPGASVKVSCKASGYTFTGYYMHWVRQAPGQGLEWMGWINPNSGGTNYAQKFQGWVTMTRDTSISTAYMELSRLRSDDTAVYYCASGLSPDFSVLDVWGQGTTVTVSS
VL: [about 120 residues not given here]
notes: full-length IgG
In the case of B1, the Kd is reported as 0.331 µM.
